Measurements published in patent EP4162935B1 (UNIVERSIDADE NOVA DE LISBOA, priority 2021, dated 2023).

Test system: SARS-CoV-2
Test: SARS-CoV-2 cell infection assay in Vero E6 cells, intracellular ATP levels (CellTiter-Glo) and cytopathic effect
Settings: concentration with […] absence of virus and most protection from infection, 30 pfu SARS-CoV-2, 72h

COc1ccc(-c2cc(=O)c3c(O)cc(O)cc3o2)cc1O [diosmetin, 5,7-Dihydroxy-2-(3-hydroxy-4-methoxyphenyl)-4H-benzopyran-4-one] gave an optimal concentration of 45 µM.
